Test results: paper PMC11335189, “Revealing molecular determinants governing mambalgin-3 pharmacology at acid-sensing ion channel 1 variants” (Cellular and Molecular Life Sciences: CMLS, 2024)
Substitutions are numbered along the chain they refer to.

What was measured:
[1] = biological target: T1, rat acid-sensing ion channel 1b (rat)
T1 sequence (P55926 whole entry, looked up): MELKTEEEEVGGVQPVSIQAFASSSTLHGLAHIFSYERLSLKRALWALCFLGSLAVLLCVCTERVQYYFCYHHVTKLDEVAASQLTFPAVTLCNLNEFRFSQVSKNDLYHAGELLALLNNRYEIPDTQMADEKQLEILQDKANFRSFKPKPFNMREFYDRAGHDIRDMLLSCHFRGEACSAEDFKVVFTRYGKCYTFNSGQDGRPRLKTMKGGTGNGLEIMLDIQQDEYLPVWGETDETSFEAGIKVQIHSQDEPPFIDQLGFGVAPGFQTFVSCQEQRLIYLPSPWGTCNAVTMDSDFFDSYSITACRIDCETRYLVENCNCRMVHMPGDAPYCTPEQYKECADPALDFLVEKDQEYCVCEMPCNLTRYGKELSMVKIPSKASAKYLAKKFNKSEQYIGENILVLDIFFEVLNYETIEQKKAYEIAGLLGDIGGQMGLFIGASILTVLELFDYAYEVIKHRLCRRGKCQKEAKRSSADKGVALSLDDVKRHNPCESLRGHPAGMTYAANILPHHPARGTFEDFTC

[2] = biological target: T2, rASIC1a S83T/Q84E/R175C/E177G (rat) (UniProt P55926)
T2 sequence: T1 sequence (P55926 whole entry, looked up) with S83T, Q84E, R175C, E177G

Ma-3 M16A (peptide)
I/I (control) of pH 6-evoked currents with 300 nM peptide (I/I (control)) [1]: 0.8
I/I (control) of pH 6-evoked currents with 300 nM peptide (I/I (control)) [2]: 0.56
